Source: patent US8735414B2 (priority 2009, dated 2014)
pIC50: −log10 of the molar value.

Test system: HCV-poliovirus (HCV-PV) chimera in HeLa cells
Test: Compound activity evaluation using an HCV-poliovirus chimera

Compound: Cc1ccc2c(C#N)c(-c3ccc(S(=O)(=O)NC(CF)CF)cn3)n(C(C)C)c2c1 [compound 80, 6-[3-cyano-6-methyl-1-(propan-2-yl)-1H-indol-2-yl]-N-(1,3-difluoropropan-2-yl)pyridine-3-sulfonamide]
- pIC50: > 6.30

Compound: Cc1ccc2c(C#N)c(-c3ccc(S(=O)(=O)NC(CF)CF)cn3)n(CC3CC3)c2c1 [compound 81, 6-[3-cyano-1-(cyclopropylmethyl)-6-methyl-1H-indol-2-yl]-N-(1,3-difluoropropan-2-yl)pyridine-3-sulfonamide]
- pIC50: > 6.30

Compound: Cc1ccc2c(C#N)c(-c3ccc(S(=O)(=O)NC(CF)CF)cn3)n(C3CCC3)c2c1 [compound 82, 6-(3-cyano-1-cyclobutyl-6-methyl-1H-indol-2-yl)-N-(1,3-difluoropropan-2-yl)pyridine-3-sulfonamide]
- pIC50: > 6.30

Compound: CC(C)n1c(-c2ccc(S(=O)(=O)NC(CF)CF)cn2)c(C#N)c2ccc(C3CC3)cc21 [compound 83, 6-[3-cyano-6-cyclopropyl-1-(propan-2-yl)-1H-indol-2-yl]-N-(1,3-difluoropropan-2-yl)pyridine-3-sulfonamide]
- pIC50: > 6.30

Compound: N#Cc1c(-c2ccc(S(=O)(=O)NC(CF)CF)cn2)n(CC2CC2)c2cc(C3CC3)ccc12 [compound 84, 6-[3-cyano-6-cyclopropyl-1-(cyclopropylmethyl)-1H-indol-2-yl]-N-(1,3-difluoropropan-2-yl)pyridine-3-sulfonamide]
- pIC50: > 6.30

Compound: N#Cc1c(-c2ccc(S(=O)(=O)NC(CF)CF)cn2)n(C2CCCC2)c2cc(C3CC3)ccc12 [compound 85, 6-(3-cyano-1-cyclopentyl-6-cyclopropyl-1H-indol-2-yl)-N-(1,3-difluoropropan-2-yl)pyridine-3-sulfonamide]
- pIC50: > 6.30

Compound: N#Cc1c(-c2ccc(S(=O)(=O)NC(CF)CF)cn2)n(C2CCCCC2)c2cc(Cl)ccc12 [compound 89, 6-(6-chloro-3-cyano-1-cyclohexyl-1H-indol-2-yl)-N-(1,3-difluoropropan-2-yl)pyridine-3-sulfonamide]
- pIC50: > 6.30

Compound: N#Cc1c(-c2ccc(S(=O)(=O)NC(CF)CF)cn2)n(C2CCCCC2)c2cc(C3CC3)ccc12 [compound 92, 6-(3-cyano-1-cyclohexyl-6-cyclopropyl-1H-indol-2-yl)-N-(1,3-difluoropropan-2-yl)pyridine-3-sulfonamide]
- pIC50: > 6.30

Compound: N#Cc1c(-c2ccc(S(=O)(=O)NC3(C(F)(F)F)CC3)cn2)n(C2CCCC2)c2cc(OC(F)F)ccc12 [compound 94, 6-[3-cyano-1-cyclopentyl-6-(difluoromethoxy)-1H-indol-2-yl]-N-[1-(trifluoromethyl)cyclopropyl]pyridine-3-sulfonamide]
- pIC50: > 6.30

Compound: N#Cc1c(-c2ccc(S(=O)(=O)NC(CF)CF)cn2)n(-c2ccccc2)c2cc(C3CC3)ccc12 [compound 95, 6-(3-cyano-6-cyclopropyl-1-phenyl-1H-indol-2-yl)-N-(1,3-difluoropropan-2-yl)pyridine-3-sulfonamide]
- pIC50: > 6.30

Compound: N#Cc1c(-c2ccc(S(=O)(=O)NC(CF)CF)cn2)n(-c2ccccn2)c2ccc(F)cc12 [compound 96, 6-[3-cyano-5-fluoro-1-(pyridin-2-yl)-1H-indol-2-yl]-N-(1,3-difluoropropan-2-yl)pyridine-3-sulfonamide]
- pIC50: > 6.30

Compound: N#Cc1c(-c2ccc(S(=O)(=O)NC(CF)CF)cn2)n(C2CCCCC2)c2ccc(F)cc12 [compound 104, 6-(3-cyano-1-cyclohexyl-5-fluoro-1H-indol-2-yl)-N-(1,3-difluoropropan-2-yl)pyridine-3-sulfonamide]
- pIC50: > 6.30

Compound: N#Cc1c(-c2ccc(S(=O)(=O)NC(CF)CF)cn2)n(CC2CC2)c2cc(Cl)c(F)cc12 [compound 110, 6-[6-chloro-3-cyano-1-(cyclopropylmethyl)-5-fluoro-1H-indol-2-yl]-N-(1,3-difluoropropan-2-yl)pyridine-3-sulfonamide]
- pIC50: > 6.30

Compound: N#Cc1c(-c2ccc(S(=O)(=O)NC(CF)CF)cn2)n(-c2ccccc2)c2ccc(Cl)cc12 [compound 112, 6-(5-chloro-3-cyano-1-phenyl-1H-indol-2-yl)-N-(1,3-difluoropropan-2-yl)pyridine-3-sulfonamide]
- pIC50: > 6.30

Compound: N#Cc1c(-c2ccc(S(=O)(=O)NC(CF)CF)cn2)n(-c2ccccc2)c2ccc(F)cc12 [compound 113, 6-(3-cyano-5-fluoro-1-phenyl-1H-indol-2-yl)-N-(1,3-difluoropropan-2-yl)pyridine-3-sulfonamide]
- pIC50: > 6.30

Compound: Cc1ccc2c(c1)c(C#N)c(-c1ncc(S(=O)(=O)NC(CF)CF)cn1)n2C1CCC1 [compound 122, 2-(3-cyano-1-cyclobutyl-5-methyl-1H-indol-2-yl)-N-(1,3-difluoropropan-2-yl)pyrimidine-5-sulfonamide]
- pIC50: > 6.30

Compound: CC(C)NS(=O)(=O)c1cnc(-c2c(C#N)c3ccc(C4CC4)cc3n2CC2CC2)nc1 [compound 124, 2-[3-cyano-6-cyclopropyl-1-(cyclopropylmethyl)-1H-indol-2-yl]-N-(propan-2-yl)pyrimidine-5-sulfonamide]
- pIC50: > 6.30

Compound: N#Cc1c(-c2ncc(S(=O)(=O)NC(CF)CF)cn2)n(C2CCC2)c2cc(C3CC3)ccc12 [compound 126, 2-(3-cyano-1-cyclobutyl-6-cyclopropyl-1H-indol-2-yl)-N-(1,3-difluoropropan-2-yl)pyrimidine-5-sulfonamide]
- pIC50: > 6.30

Compound: N#Cc1c(-c2ncc(S(=O)(=O)NC(CF)CF)cn2)n(C2CCC2)c2cc(OC(F)F)ccc12 [compound 129, 2-[3-cyano-1-cyclobutyl-6-(difluoromethoxy)-1H-indol-2-yl]-N-(1,3-difluoropropan-2-yl)pyrimidine-5-sulfonamide]
- pIC50: > 6.30

Compound: Cc1ccc2c(C#N)c(-c3ncc(S(=O)(=O)NC(CF)CF)cn3)n(C3CCC3)c2c1 [compound 132, 2-(3-cyano-1-cyclobutyl-6-methyl-1H-indol-2-yl)-N-(1,3-difluoropropan-2-yl)pyrimidine-5-sulfonamide]
- pIC50: > 6.30

Compound: Cc1ccc2c(C#N)c(-c3ncc(S(=O)(=O)NC(CF)CF)cn3)n(C3CCCC3)c2c1 [compound 135, 2-(3-cyano-1-cyclopentyl-6-methyl-1H-indol-2-yl)-N-(1,3-difluoropropan-2-yl)pyrimidine-5-sulfonamide]
- pIC50: > 6.30

Compound: N#Cc1c(-c2ncc(S(=O)(=O)NC(CF)CF)cn2)n(C2CCC2)c2cc(C3CC3)c(F)cc12 [compound 145, 2-(3-cyano-1-cyclobutyl-6-cyclopropyl-5-fluoro-1H-indol-2-yl)-N-(1,3-difluoropropan-2-yl)pyrimidine-5-sulfonamide]
- pIC50: > 6.30

Compound: N#Cc1c(-c2ncc(S(=O)(=O)NC(CF)CF)cn2)n(C2CCCC2)c2cc(OC(F)(F)F)ccc12 [compound 178, 2-[3-cyano-1-cyclopentyl-6-(trifluoromethoxy)-1H-indol-2-yl]-N-(1,3-difluoropropan-2-yl)pyrimidine-5-sulfonamide]
- pIC50: > 6.30

Compound: C[C@@H](NS(=O)(=O)c1ccc(-c2c(C#N)c3ccc(OC(F)(F)F)cc3n2C2CCC2)nc1)C(F)(F)F [compound 191, 6-[3-cyano-1-cyclobutyl-6-(trifluoromethoxy)-1H-indol-2-yl]-N-[(2R)-1,1,1-trifluoropropan-2-yl]pyridine-3-sulfonamide]
- pIC50: > 6.30

Compound: Cc1ccc2c(c1)c(C#N)c(-c1ncc(S(=O)(=O)NC(CF)CF)cn1)n2C1CCCCC1 [compound 198, 2-(3-cyano-1-cyclohexyl-5-methyl-1H-indol-2-yl)-N-(1,3-difluoropropan-2-yl)pyrimidine-5-sulfonamide]
- pIC50: > 6.30
